# Counter-ions that a name gives are not always drawn.
# Test system: SARS-CoV-2 (BetaCov/Belgium/GHB-03021/2020)
# Test: microbe, parasite or virus in culture
# Format: cell-based
# Settings: Severe acute respiratory syndrome coronavirus 2, 120 h
row,SMILES,IC50 [µM]
1,O=C(O)Cc1cccc(OCCCN(Cc2cccc(C(F)(F)F)c2Cl)CC(c2ccccc2)c2ccccc2)c1,27.7
2,CC(=O)[C@]1(O)Cc2c(O)c3c(c(O)c2[C@@H](O[C@H]2C[C@H](N)[C@H](O)[C@H](C)O2)C1)C(=O)c1ccccc1C3=O [Idarubicin HCl],58.9

# Reference: patent US20230126310A1 (priority 2020, published 2023)
